Molecular target: human serum complement 3 (C3) (UniProt P01024)
Assay: ELISA
Conditions: read off a plot

## SPE B (wild type) C192S
  other: Relative C3 Binding %: 92%

Source: paper PMC4309557, “Application of the C3-Binding Motif of Streptococcal Pyrogenic Exotoxin B to Protect Mice from Invasive Group A Streptococcal Infection” (2015)
